Experimental data: patent US7888363B2, “Viral polymerase inhibitors” (Boehringer Ingelheim International GmbH, priority 2003, dated 2011)

Sequences of proteins named here, by UniProt entry; tags and fusion partners are left off. Residues count along the entry.
UniProt P26663, 2420-3010 limits assumed: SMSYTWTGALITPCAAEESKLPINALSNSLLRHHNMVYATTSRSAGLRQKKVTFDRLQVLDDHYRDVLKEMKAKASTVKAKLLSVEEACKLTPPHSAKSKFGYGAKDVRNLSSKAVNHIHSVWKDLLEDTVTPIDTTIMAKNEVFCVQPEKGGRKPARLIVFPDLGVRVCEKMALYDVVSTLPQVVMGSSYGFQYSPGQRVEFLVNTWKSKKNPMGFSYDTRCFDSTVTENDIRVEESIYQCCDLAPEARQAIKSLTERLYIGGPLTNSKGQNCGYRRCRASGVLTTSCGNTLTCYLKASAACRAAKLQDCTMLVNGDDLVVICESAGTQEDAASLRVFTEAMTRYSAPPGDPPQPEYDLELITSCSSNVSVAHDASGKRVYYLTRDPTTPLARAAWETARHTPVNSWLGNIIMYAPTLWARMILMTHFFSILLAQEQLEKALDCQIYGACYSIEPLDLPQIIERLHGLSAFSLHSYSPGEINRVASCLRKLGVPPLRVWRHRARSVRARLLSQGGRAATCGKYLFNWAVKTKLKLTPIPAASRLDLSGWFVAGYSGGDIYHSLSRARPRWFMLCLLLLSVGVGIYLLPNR

Biological target: hepatitis C virus RNA dependant polymerase (NS5B) (Hepatitis C virus genotype 1b, UniProt P26663)
Test: Inhibition of NS5B RNA dependent RNA polymerase activity
Type: biochemical
Protocol: A suitable assay is described in the examples.
Inhibition of NS5B RNA Dependent RNA Polymerase Activity
The compounds of the invention were tested for inhibitory activity against the hepatitis C virus RNA dependant polymerase (NS5B), according to protocol described in WO 03/010141

CC(C)(NC(=O)Cn1c(-c2ccoc2)c(C2CCCCC2)c2ccc(C(=O)O)cc21)C(=O)Nc1ccc([N+](=O)[O-])cc1
IC50 (Table 1, HCV NS5B polymerase): 200 to 1000 nM

O=C(NC1CCCC1OCc1ccccc1)c1ccc2c(c1)c(C1CCCCC1)c(-c1ccoc1)n2CC(=O)N1CCC(N2CCCC2)CC1 (stereo not shown)
IC50 (Table 7, class ranges): 1000 to 10000 nM

CC(=O)NC(=O)c1ccc2c(C3CCCCC3)c(-c3ccoc3)n(CC(=O)N3CCOCC3)c2c1
IC50 (Table 4, class ranges): 200 to 1000 nM

O=C(NC1(c2csc(-c3cccs3)n2)CCC1)c1ccc2c(C3CCCCC3)c(-c3ccoc3)n(CC(=O)N3CCC(N4CCCC4)CC3)c2c1
IC50 (Table 4, class ranges): 200 to 1000 nM

CC(C)NC(=O)Cn1c(-c2ccsc2)c(C2CCCCC2)c2ccc(C(=O)O)cc21
IC50 (Table 1, HCV NS5B polymerase): 200 to 1000 nM

Nc1nc(-c2ccc(NC(=O)C3(NC(=O)c4ccc5c(C6CCCCC6)c(-c6ccoc6)n(CC(=O)N6CCOCC6)c5c4)CCCNC3)cc2)cs1 (stereo not shown)
IC50 (Table 3, HCV NS5B polymerase): < 200 nM

O=C(O)/C=C/c1ccc(NC(=O)C2(NC(=O)c3ccc4c(C5CCCCC5)c(-c5ccoc5)n(CC(=O)N5CCOCC5)c4c3)CCC2)cc1
IC50 (Table 3, HCV NS5B polymerase): < 200 nM

Cc1csc(C2(NC(=O)c3ccc4c(C5CCCCC5)c(-c5ccoc5)n(CC(=O)N5CCOCC5)c4c3)CCC2)n1
IC50 (Table 4, class ranges): 200 to 1000 nM

Cc1nn(C)c(C)c1S(=O)(=O)NC(=O)c1ccc2c(C3CCCCC3)c(-c3ccoc3)n(CC(=O)N3CCOCC3)c2c1
IC50 (Table 2, HCV NS5B polymerase): < 200 nM

Cc1c(C(=O)O)ccc2c(C3CCCCC3)c(-c3ccoc3)n(CC(=O)N(C)C)c12
IC50 (Table 7, class ranges): < 200 nM

O=C(NS(=O)(=O)c1c(Cl)cccc1Cl)c1ccc2c(C3CCCCC3)c(-c3ccoc3)n(CC(=O)N3CCOCC3)c2c1
IC50 (Table 2, HCV NS5B polymerase): < 200 nM

CC(C)NC(=O)Cn1c(-c2ccccc2)c(C2CCCCC2)c2ccc(C(=O)O)cc21
IC50 (Table 1, HCV NS5B polymerase): 200 to 1000 nM

CC(=O)Nc1ccc(S(=O)(=O)NC(=O)c2ccc3c(C4CCCCC4)c(-c4ccoc4)n(CC(=O)N4CCOCC4)c3c2)cc1
IC50 (Table 2, HCV NS5B polymerase): < 200 nM
